# From US20210147481A1, “PEPTIDE-BASED INHIBITORS OF MARK FAMILY PROTEINS” (Ohio Universtiy, priority 2017, published 2021)
# The chains behind the UniProt entries cited, without tags or fusion partners. Where a name states a change or a piece, a line headed by the entry shows the natural chain unless it says otherwise.
# UniProt O08679: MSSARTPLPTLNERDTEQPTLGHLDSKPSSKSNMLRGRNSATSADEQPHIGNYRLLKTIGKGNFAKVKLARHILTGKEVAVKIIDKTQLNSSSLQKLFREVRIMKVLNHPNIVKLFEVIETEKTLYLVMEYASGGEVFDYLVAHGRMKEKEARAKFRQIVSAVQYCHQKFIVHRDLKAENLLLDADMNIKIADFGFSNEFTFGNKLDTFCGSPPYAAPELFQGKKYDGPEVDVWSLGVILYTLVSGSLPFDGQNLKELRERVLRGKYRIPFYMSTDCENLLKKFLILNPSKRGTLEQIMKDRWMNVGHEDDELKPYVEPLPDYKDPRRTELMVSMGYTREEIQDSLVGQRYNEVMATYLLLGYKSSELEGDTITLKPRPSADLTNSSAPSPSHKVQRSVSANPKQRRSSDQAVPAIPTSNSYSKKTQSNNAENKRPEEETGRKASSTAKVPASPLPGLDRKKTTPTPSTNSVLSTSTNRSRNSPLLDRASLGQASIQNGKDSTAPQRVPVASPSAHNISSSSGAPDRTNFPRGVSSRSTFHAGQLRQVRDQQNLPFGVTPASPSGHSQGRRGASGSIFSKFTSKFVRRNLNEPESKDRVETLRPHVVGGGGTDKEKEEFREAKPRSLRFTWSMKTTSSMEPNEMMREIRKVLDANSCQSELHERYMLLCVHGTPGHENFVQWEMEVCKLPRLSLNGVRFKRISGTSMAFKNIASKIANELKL
# Assays:
# MARK2 = MARK2 (Rattus norvegicus, UniProt O08679); test: Immunofluorescence of PAO-induced MARK2-mediated tau Ser262 phosphorylation in neurons; type: cell-based; details: PAO versus untreated controls
# [1] = system: kinases that phosphorylate tau at Thr231; test: Immunofluorescence of tau Thr231 phosphorylation in neurons; type: cell-based, rat; details: PAO treatment alone
smiles,measurement,setting,value
O=[As]c1ccccc1 (centres unmarked),effect on endogenous tau phosphorylation of Ser262,MARK2,increased endogenous tau phosphorylation of Ser262 significantly over untreated controls
same,effect on phosphorylation at tau Thr231,[1],completely abolished phosphorylation at tau Thr231
